Data taken from US6525028B1, “Immunoeffector compounds” (Corixa Corporation, priority 2002, dated 2003).

System: 51Cr-labeled transfected P815S cells expressing the L^d-restricted epitope
Assay: CTL activity of spleen cells of HBsAg immunized mice, four hour 51Cr-release assay (Example 7)

Substance | Percent Specific Killing (Effector:Target Ratio) 6.25:1 (E:T 6.25:1, spleen cells 9 days post-vaccination, four day incubation with peptide) | Percent Specific Killing (Effector:Target Ratio) 12.5:1 (E:T 12.5:1, spleen cells 9 days post-vaccination, four day incubation with peptide) | Percent Specific Killing (Effector:Target Ratio) 25:1 (E:T 25:1, spleen cells 9 days post-vaccination, four day incubation with peptide) | Percent Specific Killing (Effector:Target Ratio) 50:1 (E:T 50:1, spleen cells 9 days post-vaccination, four day incubation with peptide) | CTL activity, in words (versus antigen only controls)
Monophosphoryl lipid A [MPL® immunostimulant, reference compound] | 32% | 47% | 71% | 80% | 
N-[(R)-3-tetradecanoyloxytetradecanoyl]-(S)-2-pyrrolidinylmethyl 2-deoxy-4-O-phosphono-2-[(R)-3-tetradecanoyloxytetradecanoylamino]-3-O-[(R)-3-tetradecanoyloxytetradecanoyl]-β-D-glucopyranoside triethylammonium salt [Compound II] |  |  |  |  | significantly elevated levels of CTL activity compared to the antigen only controls
